Values from PubChem BioAssay AID504761 (Drosophila RNAi Screening Center, 2011)

Aim: 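Fly genes whose silencing reduces dengue virus type 2 infection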 (primary screen)
Cell system: D.Mel-2 cells from Drosophila
Knock-down reagent: long dsRNA against Drosophila genes
Conditions: infection with dengue virus type 2; dose and infection time not stated
Measured: 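Cells stained for dengue envelope protein and imaged; percent of infected cells per well on duplicate plates, ranked by infection, with stained nuclei counted for cell number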
Reading the numbers: infection score: higher = more virus-infected cells
Rule for the call: 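Low infection ranks in the two replicates (chance level up to 0.065) followed by a retest with a 1.5-fold or larger significant decrease, p below 0.05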
Meaning of the calls: active = confirmed: knock-down lowers infection; inactive = not picked or not confirmed
The screen tested about 22,000 reagents; below is an unselected part of those with a known target gene and a result. Over the whole deposit, 116 (0.52%) are marked active. 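Calls depend on retest data that are not deposited; infection was ranked per plate without normalising between plates; the unit of the infection score is not given.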 Reagents against one gene are numbered here. Not all columns of the deposit are shown. No sequences are given here. The record does not give: the amount of reagent, the time to read-out.

SF1 (Splicing factor 1) showed infection score, replicate 1 = 18.4; inactive.
Silencing of CG7896 came out at: infection score, replicate 1 = 1.37; inactive.
With knock-down of Cow #1, the screen gave infection score, replicate 1 = 4.81; inactive.
Knock-down of Cow #2 resulted in: infection score, replicate 1 = 7.82; inactive.
Knock-down of Cow #3 gave: infection score, replicate 1 = 51.5; inactive.
For ssp5 (short spindle 5), the values are infection score, replicate 1 = 3.95; inactive.
With knock-down of Obp56c (Odorant-binding protein 56c) #1, the screen gave infection score, replicate 1 = 12.1; inactive.
Obp56c (Odorant-binding protein 56c) #2 gave infection score, replicate 1 = 1.9; inactive.
Against Obp56c (Odorant-binding protein 56c) #3, the entry reads infection score, replicate 1 = 27.2; inactive.
Against CG7889 #1 the deposit lists infection score, replicate 1 = 0.8; inactive.
After knock-down of CG7889 #2 the results were infection score, replicate 1 = 6.37; inactive.
CG7879 #1 scored infection score, replicate 1 = 10.3; inactive.
CG7879 #2 scored infection score, replicate 1 = 3.64; inactive.

2 successive entries from above, for reference:
ssp5 (short spindle 5): infection score, replicate 1 = 3.95; Outcome = inactive
Obp56c (Odorant-binding protein 56c) #1: infection score, replicate 1 = 12.1; Outcome = inactive
